Only a part is listed here, and it is no random draw. Entries with a potency or affinity are not part of this list. Some salts and complexes are drawn in separate pieces, as the source files them; their charges need not balance. Activity calls are given as the source filed them.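 Rule for the calls: active = primary inhibition above the hit cutoff, then over 50% inhibition at one or more dose response concentrations (cut at about 23% in these data, passing the limit was not always enough); inconclusive = conflicting primary data, or primary hits not chosen for dose response; inactive = low primary inhibition, or under 50% at every dose.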
Biological target: Aminopeptidase N (Plasmodium falciparum (isolate 3D7)) (UniProt O96935)
Assay: P. falciparum M1AAP inhibitors, biochemical, fluorogenic H-Leu-NHMec substrate, 1536-well (AID 1445);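 note: plate controls were DMSO full reaction for no effect and no enzyme background for full effect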
Conditions: recombinant M1AAP, H-Leu-NHMec fluorogenic kinetic assay; at 30 µM; hits give high values

Chains of the proteins cited; added tags and fusions are not shown.
UniProt O96935, whole entry: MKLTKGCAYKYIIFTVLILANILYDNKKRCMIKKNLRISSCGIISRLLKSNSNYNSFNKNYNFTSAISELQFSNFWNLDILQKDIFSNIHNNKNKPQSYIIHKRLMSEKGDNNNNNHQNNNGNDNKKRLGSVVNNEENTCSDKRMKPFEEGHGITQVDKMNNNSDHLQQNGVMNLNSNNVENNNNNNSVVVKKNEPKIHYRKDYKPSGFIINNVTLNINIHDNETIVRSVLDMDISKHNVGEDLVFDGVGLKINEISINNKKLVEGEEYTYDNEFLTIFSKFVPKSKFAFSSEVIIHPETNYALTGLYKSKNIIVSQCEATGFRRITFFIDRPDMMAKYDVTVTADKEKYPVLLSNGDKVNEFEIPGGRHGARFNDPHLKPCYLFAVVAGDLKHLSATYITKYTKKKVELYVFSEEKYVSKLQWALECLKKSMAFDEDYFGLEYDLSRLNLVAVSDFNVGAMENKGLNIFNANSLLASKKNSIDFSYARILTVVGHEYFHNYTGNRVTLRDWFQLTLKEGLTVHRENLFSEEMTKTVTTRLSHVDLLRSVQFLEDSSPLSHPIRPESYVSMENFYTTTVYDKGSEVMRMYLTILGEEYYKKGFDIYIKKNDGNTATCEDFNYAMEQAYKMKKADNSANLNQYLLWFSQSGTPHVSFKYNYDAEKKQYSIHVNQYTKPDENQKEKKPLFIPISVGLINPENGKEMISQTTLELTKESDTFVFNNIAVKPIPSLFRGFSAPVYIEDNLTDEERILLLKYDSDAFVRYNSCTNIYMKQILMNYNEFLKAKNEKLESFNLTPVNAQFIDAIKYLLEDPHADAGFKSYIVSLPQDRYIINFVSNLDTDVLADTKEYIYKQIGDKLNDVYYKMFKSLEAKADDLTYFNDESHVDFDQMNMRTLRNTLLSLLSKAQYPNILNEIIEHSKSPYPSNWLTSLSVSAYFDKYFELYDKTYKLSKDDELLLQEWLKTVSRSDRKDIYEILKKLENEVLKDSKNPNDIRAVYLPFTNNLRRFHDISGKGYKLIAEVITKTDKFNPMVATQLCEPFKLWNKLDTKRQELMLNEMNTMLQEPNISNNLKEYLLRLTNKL

Row | Structure (SMILES) | inhibition
1 | CCOP(C)(=S)SCC(=O)NC(C)(CC)C(=O)O (stereo not drawn) | inactive: 6.76%
2 | CP(=O)(Nc1ccc(SC(F)(F)F)cc1)Oc1ccc(F)cc1 (stereo not drawn) | inactive: 1.4%
3 | Cc1ccccc1NP(C)(=O)Nc1ccccc1C | inactive: 3.85%
4 | CP(=O)(Nc1ccc2c(c1)OCCO2)Oc1ccccc1 (stereo not drawn) | inactive: 4.79%
5 | CN(C)CCOC(=O)C(O)(c1ccccc1)C1CCCCC1 (stereo not drawn) | inactive: 4.22%
6 | COc1ccc(NP(C)(=O)Oc2ccccc2OC)cc1 (stereo not drawn) | inactive: 0.58%
7 | COc1ccc(OP(C)(=O)Nc2cccc(Br)c2)cc1 (stereo not drawn) | inactive: 1.99%
8 | O=[N+]([O-])c1ccc(OP2(=O)COCCO2)cc1 (stereo not drawn) | inactive: -1%
9 | Cc1cc(-c2cccc3ccccc23)c(C)cn1.O=[N+]([O-])c1cc([N+](=O)[O-])c(O)c([N+](=O)[O-])c1 | inactive: 11.1%
10 | O=[N+]([O-])c1cc([N+](=O)[O-])c(NCC2CCS(=O)(=O)C2)c([N+](=O)[O-])c1 (stereo not drawn) | inactive: 4.45%
11 | CCOC(=O)c1ccc(NP(C)(=O)Oc2ccc(F)cc2)cc1 (stereo not drawn) | inactive: 4.78%
12 | COc1ccc(OP(C)(=O)Nc2ccc(SC(F)(F)F)cc2)cc1 (stereo not drawn) | inactive: 0.39%
13 | CP(=O)(Nc1ccccc1)Oc1ccc(F)cc1 (stereo not drawn) | inactive: 5%
14 | CCCCCOc1ccc(NP(C)(=O)Oc2ccc(Cl)cc2Cl)cc1 (stereo not drawn) | inactive: -0.22%
15 | CCN(CC)CCCOC(=O)C(O)(c1ccccc1)C1CCCCC1 (stereo not drawn) | inactive: 1.79%
16 | CP(=O)(Nc1ccccc1F)Oc1ccccc1 (stereo not drawn) | inactive: -3.51%
17 | CC(C)c1ccc(OP(C)(=O)Nc2ccc(SC(F)(F)F)cc2)cc1 (stereo not drawn) | inactive: 10.1%
18 | COc1ccc2c(c1O)-c1c(O)c(OC)cc3c1[C@H](C2)[N+](C)(C)CC3.O=[N+]([O-])c1cc([N+](=O)[O-])c([O-])c([N+](=O)[O-])c1[O-] | inactive: 9.32%
19 | O=C(OC1CN2CCC1CC2)c1ccc([N+](=O)[O-])cc1 (stereo not drawn) | inactive: -2.51%
20 | O=C(OCCN1CCN(CCOCc2ccccc2)CC1)C(O)(c1ccccc1)c1ccccc1 | inactive: -0.28%
21 | COc1ccc(OP(C)(=O)Nc2ccccn2)cc1 (stereo not drawn) | inactive: 13.7%

Row | Structure (SMILES) | inhibition
22 | CN(C)CCOC(=O)C(O)(c1ccccc1)C1CCCC1 (stereo not drawn) | inactive: 0.84%
23 | COc1ccccc1OP(C)(=O)Nc1ccc(Br)cc1 (stereo not drawn) | inactive: 0.15%
24 | CP(=O)(Nc1ccccn1)Oc1ccccc1 (stereo not drawn) | inactive: 0.12%
25 | COc1ccccc1OP(C)(=O)Nc1ccc(C)cc1C (stereo not drawn) | inactive: 1.22%
26 | CCc1ccc(OP(C)(=O)O)cc1 | inactive: -5.24%
27 | O=[N+]([O-])c1cc([N+](=O)[O-])c(Nc2ccccn2)c([N+](=O)[O-])c1 | inactive: 1.85%
28 | Cc1c(NP(C)(=O)Oc2ccc(C(C)C)cc2)c(=O)n(-c2ccccc2)n1C (stereo not drawn) | inactive: 6.81%
29 | COc1ccccc1OP(C)(=O)Nc1ccc(C)c(C)c1 (stereo not drawn) | inactive: -0.61%
30 | COc1ccc(OP(C)(=O)Nc2ccccc2Br)cc1 (stereo not drawn) | inactive: 2.96%
31 | Cc1cc(C)cc(OP(C)(=O)Nc2cccc(C(F)(F)F)c2)c1 (stereo not drawn) | inactive: -0.14%
32 | CP(=O)(OCCOc1ccccc1)OCCOc1ccccc1 | inactive: 2.41%
33 | CP(=O)(Nc1ccc(Cl)cc1Cl)Oc1ccccc1 (stereo not drawn) | inactive: 4.57%
34 | Cc1nc2ccc3ccccc3c2o1.O=[N+]([O-])c1cc([N+](=O)[O-])c(O)c([N+](=O)[O-])c1 | inactive: 11.6%
35 | CCOC(=O)c1ccc(NP(C)(=O)Oc2ccc(Cl)cc2)cc1 (stereo not drawn) | inactive: -4.07%
36 | CP(=O)(OC12CC3CC(CC(C3)C1)C2)OC12CC3CC(CC(C3)C1)C2 | inactive: 4.93%
37 | O=C(OCCCN1CCCC1)C(O)(c1ccccc1)C1CCCCC1 (stereo not drawn) | inactive: 11.4%
38 | CP(=O)(Oc1ccccc1)N1CCOC1=O (stereo not drawn) | inactive: 3.97%
39 | CCc1ccc(OP(C)(=O)Nc2cccnc2)cc1 (stereo not drawn) | inactive: -0.17%
40 | CCN(CC)CC(O)COC(=O)C(O)(c1ccccc1)C1CCCCC1 (stereo not drawn) | inactive: -2.3%
41 | COc1ccc(OP(C)(=O)Nc2ccc(Br)cc2)cc1 (stereo not drawn) | inactive: -1.48%
42 | CN(C)C(=O)c1c([N+](=O)[O-])cc([N+](=O)[O-])cc1[N+](=O)[O-] | inactive: 4.25%

Row | Structure (SMILES) | inhibition
43 | CC(C)(C)c1ccc(OP(C)(=O)O)cc1 | inactive: 11.9%
44 | COc1ccccc1OP(C)(=O)Nc1ccccc1Br (stereo not drawn) | inactive: 1.51%
45 | CP(=O)(Nc1ccc(Cl)cc1)Oc1ccc(F)cc1 (stereo not drawn) | inactive: 8.58%
46 | CCc1ccc(OP(C)(=O)N2CCN(c3ccc([N+](=O)[O-])cc3)CC2)cc1 (stereo not drawn) | inactive: 6.84%
47 | CP(=O)(NC(=O)Nc1ccccc1)Oc1ccccc1 (stereo not drawn) | inactive: 2.64%
48 | Cc1cc(C)cc(OP(C)(=O)Nc2ccc(SC(F)(F)F)cc2)c1 (stereo not drawn) | inactive: 1.23%
49 | CP(=O)(Nc1ccc(SC(F)(F)F)cc1)Oc1ccc(Cl)cc1 (stereo not drawn) | inactive: 1%
50 | Cc1cccc(C)c1OP(C)(=O)Nc1ccc(SC(F)(F)F)cc1 (stereo not drawn) | inactive: 3.27%
51 | CP(=O)(Oc1ccccc1)OC(c1ccccc1)C(F)(F)F (stereo not drawn) | inactive: -0.57%
52 | CP(=O)(Nc1ccccn1)Oc1ccc(Cl)cc1 (stereo not drawn) | inactive: -4.61%
53 | CCOC(=O)c1ccc(NP(C)(=O)Oc2ccc(OC)cc2)cc1 (stereo not drawn) | inactive: 10.3%
54 | CCOP(C)(=S)SCC(=O)NC(C)C(=O)O (stereo not drawn) | inactive: -9.61%
55 | CP(=O)(Nc1ccccc1Br)Oc1ccccc1 (stereo not drawn) | inactive: 3.07%
56 | COc1ccccc1OP(C)(=O)Nc1ccccc1 (stereo not drawn) | inactive: 2.86%
57 | CP(=S)(Nn1cnnc1)Oc1ccccc1 (stereo not drawn) | inactive: 5.65%
58 | O=[N+]([O-])c1ccc2c(c1)C=Nc1ccccc1O2 | inactive: 4.26%
59 | CC(C)(C)c1ccc(OP(C)(=O)Nc2ccc(SC(F)(F)F)cc2)cc1 (stereo not drawn) | inactive: 2.1%
60 | Cc1cccc(C)c1OP(C)(N)=O (stereo not drawn) | inactive: -1.17%
61 | Cc1cc(C)cc(OP(C)(N)=O)c1 (stereo not drawn) | inactive: 1.35%
62 | COc1ccccc1OP(C)(=O)Nc1cc(Cl)ccc1C (stereo not drawn) | inactive: 5.12%
63 | COc1ccc(OP(C)(=O)Nc2cccc(F)c2)cc1 (stereo not drawn) | inactive: 13.1%

Row | Structure (SMILES) | inhibition
64 | COc1ccccc1OP(C)(=O)Nc1ccc(C)cc1 (stereo not drawn) | inactive: -2.09%
65 | Cc1ccc(NP(C)(=O)Oc2ccccc2)c(C)c1 (stereo not drawn) | inactive: 1.78%
66 | CCOC(=O)c1ccc(NP(C)(=O)Oc2ccccc2)cc1 (stereo not drawn) | inactive: 3.8%
67 | CCN(CC)CCCOC(=O)C(O)(c1ccccc1)c1ccccc1 | inactive: 9.33%
68 | CCOC(=O)c1ccc(NP(C)(=O)Oc2cc(C)cc(C)c2)cc1 (stereo not drawn) | inactive: 16.1%
69 | Cc1cc(C)cc(OP(C)(=O)Nc2ccc(C)cc2C)c1 (stereo not drawn) | inactive: 5.16%
70 | COc1ccccc1OP(C)(=O)Nc1cccc(Br)c1 (stereo not drawn) | inactive: -3.01%
71 | Cc1ccc(C)c(NP(C)(=O)Oc2ccccc2)c1 (stereo not drawn) | inactive: -0.32%
72 | CP(=O)(Nc1cccc(Br)c1)Oc1ccccc1 (stereo not drawn) | inactive: -1.1%
73 | Cc1cc(C)cc(OP(C)(=O)Nc2ccccn2)c1 (stereo not drawn) | inactive: -0.5%
74 | O=C(O)c1cccc(Nc2c([N+](=O)[O-])cc([N+](=O)[O-])cc2[N+](=O)[O-])c1 | inactive: 2%
75 | CC1=NCCc2c1[nH]c1ccccc21.O=[N+]([O-])c1cc([N+](=O)[O-])c(O)c([N+](=O)[O-])c1 | inactive: 13.1%
76 | O=[N+]([O-])c1cc([N+](=O)[O-])c(Nc2nnnn2CCO)c([N+](=O)[O-])c1 | inactive: 11.2%
77 | CCOC(=O)C(CC)C1=NC(C)(C)Cc2ccccc21.O=[N+]([O-])c1cc([N+](=O)[O-])c(O)c([N+](=O)[O-])c1 (stereo not drawn) | inactive: 3.76%
78 | CP(=O)(Nc1ccc(SC(F)(F)F)cc1)Oc1ccccc1 (stereo not drawn) | inactive: 6.41%
79 | CCCOc1ccc(NP(C)(=O)Oc2ccc(Cl)cc2)cc1 (stereo not drawn) | inactive: 10.5%
80 | CN1CCCCC1COC(=O)C1(O)c2ccccc2CCc2ccccc21 (stereo not drawn) | inactive: 2.42%
81 | COc1ccccc1OP(C)(=O)Nc1c(C)cccc1C (stereo not drawn) | inactive: 3.28%
82 | O=[N+]([O-])c1cc([N+](=O)[O-])c(-n2nnc3ccccc32)c([N+](=O)[O-])c1 | inactive: 3.24%
83 | Cc1nc2ccc3ccccc3c2s1.O=[N+]([O-])c1cc([N+](=O)[O-])c(O)c([N+](=O)[O-])c1 | inactive: 8.29%
